Results of unrelated studies side by side (data: NIAID ChemDB).

All rows: growth or infection tests

ECn: concentration that inhibits the pathogen or its effect by n%. Neighbouring rows are from separate reports. Percent inhibition refers to the dose given; in toxicity tests it is the harm to the cells. An empty or dashed field is not shown. Zone: diameter of growth inhibition. Two numbers with a dash give a range or band. MIC50, MIC90 and the like: level of inhibition, or share of isolates inhibited.

structure,conditions,strain or isolate,endpoint,read by,agent,tested at,value
CN1CC2=C(C(=O)c3ccccc3C2=O)C12C(=O)Nc1ccccc12,-,-,MIC,agar diffusion,Mycobacterium luteus,-,125 µg/mL
CN[C@@H]1[C@@H](O[C@H]2O[C@H](CO)[C@@H](N)[C@H](O)[C@H]2O)OC2C[C@@H](N)[C@@H](O[C@H]3[C@H](OC4O[C@H](CO)[C@@H](OC5O[C@@H](CN)[C@@H](O)[C@H](O)[C@H]5N)[C@H]4O)[C@@H](O)[C@H](N)C[C@@H]3N)OC2[C@@H]1O,-,L948,MIC,broth dilution,Mycobacterium abscessus,-,2 µg/mL
C[C@H]1COC2(CCN(c3nc(=O)c4cc(C(F)(F)F)cc(C(=O)O)c4s3)CC2)O1,-,Strain M,MIC99,resazurin,Mycobacterium marinum,-,0.0007 µg/mL
Cc1cc(-c2cc3c(cc2F)c(=O)c(C(=O)O)cn3C2CC2)cc(C)n1,-,3349,MBC,-,Mycobacterium avium,-,8 µg/mL
NC[C@@H]1O[C@H](O[C@H]2[C@@H](O)[C@H](O[C@@H]3[C@@H](O)[C@H](N)C[C@H](N)[C@H]3O[C@H]3O[C@H](CO)[C@@H](O)[C@H](O)[C@H]3N)O[C@@H]2CO)[C@H](N)[C@@H](O)[C@@H]1O,-,ATCC 25291,Median MIC,-,Mycobacterium avium,-,6 µg/mL
CCCc1c2c([nH]c(=O)c1C)C(=O)c1[nH]c(=O)c(C)c(CCC)c1C2=O,-,ATCC 927,MIC90,resazurin / fluorescence,Mycobacterium marinum,-,>7.5 µg/mL
CC(C)N=c1cc2n(-c3ccc(Cl)cc3)c3ccccc3nc-2cc1Nc1ccc(Cl)cc1,-,ATCC 25291,Mean MIC,-,Mycobacterium avium,-,0.39 µg/mL
N[C@@H]1CONC1=O,-,K-10(PYUB180),MIC,-,Mycobacterium avium paratuberculosis,-,25 µg/mL
N/C(=N\N=C\c1ccccn1)c1ccccn1,-,-,EC50,-,Mycobacterium fortuitum,-,>1000 µM
CC[C@@H](CO)NCCN[C@@H](CC)CO,-,3350-4,MBC,-,Mycobacterium avium complex,-,30 µg/mL
C=C1C(=O)N[C@@H](C)C(=O)N[C@H](CC(C)C)C(=O)N[C@H](C(=O)O)[C@H](C)C(=O)N[C@H](CCCN=C(N)N)C(=O)N[C@@H](/C=C/C(C)=C/[C@H](C)[C@H](Cc2ccccc2)OC)[C@@H](C)C(=O)N[C@@H](C(=O)O)CCC(=O)N1C,-,-,MIC,resazurin,Mycobacterium chelonae,-,2.15 µM
CC[C@H]1OC(=O)[C@H](C)[C@@H](O[C@H]2C[C@@](C)(OC)[C@@H](O)[C@H](C)O2)[C@H](C)[C@@H](O[C@@H]2O[C@H](C)C[C@H](N(C)C)[C@H]2O)[C@](C)(OC)C[C@@H](C)C(=O)[C@H](C)[C@@H](O)[C@]1(C)O,-,ATCC 25291,Mean MIC,-,Mycobacterium avium,-,5 µg/mL
CO[C@H]1/C=C/O[C@@]2(C)Oc3c(C)c(O)c4c(O)c(c(/C=N/N5CCN(C)CC5)c(O)c4c3C2=O)NC(=O)/C(C)=C\C=C\[C@H](C)[C@H](O)[C@@H](C)[C@@H](O)[C@@H](C)[C@H](OC(C)=O)[C@@H]1C,-,20 strains,MIC90,-,Mycobacterium avium intracellulare,-,6.25 µg/mL
Nc1ccc(S(=O)(=O)c2ccc(N)cc2)cc1,-,Isolate 5143,MBC,-,Mycobacterium ulcerans,-,2 µg/mL
CO[C@H]1/C=C/O[C@@]2(C)Oc3c(C)c(O)c4c(O)c(c(/C=N/N5CCN(C)CC5)c(O)c4c3C2=O)NC(=O)/C(C)=C\C=C\[C@H](C)[C@H](O)[C@@H](C)[C@@H](O)[C@@H](C)[C@H](OC(C)=O)[C@@H]1C,-,Serovar 8,inhibition,-,Mycobacterium avium intracellulare,10 µg/mL,90%
Cc1cccc(Cn2cc(/C=N/NC(=S)NN)c3ccccc32)c1,24 h,1173P2,MIC100,broth dilution,Mycobacterium bovis BCG,-,>500 µg/mL
CC[C@@H](CO)NCCN[C@@H](CC)CO,-,N-481 (HIV-),MIC,-,Mycobacterium avium intracellulare,-,32 µg/mL
C(=N\Nc1nncs1)/c1cn(CC2CCC2)c2ccccc12,24 h,1173P2,MIC100,broth dilution,Mycobacterium bovis BCG,-,31.25 µg/mL
CO[C@H]1/C=C/O[C@@]2(C)Oc3c(C)c(O)c4c(O)c(c5c(c4c3C2=O)NC2(CCN(CC(C)C)CC2)N=5)=NC(=O)/C(C)=C\C=C\[C@H](C)[C@H](O)[C@@H](C)[C@@H](O)[C@@H](C)[C@H](OC(C)=O)[C@@H]1C,-,2212,MBC,-,Mycobacterium avium complex,-,16 µg/mL
NNC(=O)c1ccncc1,-,A+,EC50,-,Mycobacterium aurum,-,<0.03 µg/mL
Nc1ccc(C(=O)O)c(O)c1,-,22 strains,inhibition,agar,Mycobacterium fortuitum,10 µg/mL,0%
CO[C@H]1/C=C/O[C@@]2(C)Oc3c(C)c(O)c4c(O)c(c(/C=N/N5CCN(C)CC5)c(O)c4c3C2=O)NC(=O)/C(C)=C\C=C\[C@H](C)[C@H](O)[C@@H](C)[C@@H](O)[C@@H](C)[C@H](OC(C)=O)[C@@H]1C,-,ATCC 25291,Median MIC,-,Mycobacterium avium,-,10 µg/mL
NC(=O)c1cnccn1,-,198 strains,EC50,agar,Mycobacterium fortuitum,-,>25 µg/mL
C[C@@H]1CN(c2c(F)c(N)c3c(=O)c(C(=O)O)cn(C4CC4)c3c2F)C[C@H](C)N1,-,ATCC 25291,Mean MIC,-,Mycobacterium avium,-,8 µg/mL
CO[C@H]1/C=C/O[C@@]2(C)Oc3c(C)c(O)c4c(O)c(c(/C=N/N5CCN(C)CC5)c(O)c4c3C2=O)NC(=O)/C(C)=C\C=C\[C@H](C)[C@H](O)[C@@H](C)[C@@H](O)[C@@H](C)[C@H](OC(C)=O)[C@@H]1C,-,Isolate 90-0177,MIC,-,Mycobacterium avium,-,30 µg/mL
CCC(C)(C)c1ccc(/C=N/N=C(\N)c2ccccn2)cc1,-,-,inhibition,-,Mycobacterium fortuitum,1000 µM,3.1%
CC(=O)N1C(=O)C2(C3=C(CN2C)C(=O)c2ccccc2C3=O)c2ccccc21,-,-,zone,agar diffusion,Mycobacterium luteus,50 µg/mL,22 mm
CO[C@H]1/C=C/O[C@@]2(C)Oc3c(C)c(O)c4c(O)c(c(/C=N/N5CCN(C)CC5)c(O)c4c3C2=O)NC(=O)/C(C)=C\C=C\[C@H](C)[C@H](O)[C@@H](C)[C@@H](O)[C@@H](C)[C@H](OC(C)=O)[C@@H]1C,-,JLS,MIC,-,Mycobacterium spp.,-,0.5–5 µg/mL
O=C(O)c1cn(C2CC2)c2c(Cl)c(N3C[C@@H]4CCCN[C@@H]4C3)c(F)cc2c1=O,-,K-10(PYUB180),MIC,-,Mycobacterium avium paratuberculosis,-,0.015 µg/mL
NCC[C@H](O)C(=O)N[C@@H]1C[C@H](N)[C@@H](O[C@H]2O[C@H](CN)[C@@H](O)[C@H](O)[C@H]2O)[C@H](O)[C@H]1O[C@H]1O[C@H](CO)[C@@H](O)[C@H](N)[C@H]1O,-,562/HIV+,MIC,-,Mycobacterium avium complex,-,1.25 µg/mL
CN1CC2=C(C(=O)c3ccccc3C2=O)C12C(=O)Nc1ccc(I)cc12,-,-,zone,agar diffusion,Mycobacterium luteus,50 µg/mL,15 mm
CCc1cc(C(N)=S)ccn1,-,ATCC 25291,Mean MIC,-,Mycobacterium avium,-,2.65 µg/mL
NC[C@H]1O[C@H](O[C@H]2[C@H](O)[C@@H](O[C@H]3O[C@H](CO)[C@@H](O)[C@H](N)[C@H]3O)[C@H](N)C[C@@H]2N)[C@H](O)[C@@H](O)[C@@H]1O,-,Isolate C-28,MIC,-,Mycobacterium avium complex,-,≤12.5 µg/mL
CN1CC2=C(C(=O)c3ccccc3C2=O)C12C(=O)Nc1ccc(Br)cc12,-,-,MIC,agar diffusion,Mycobacterium luteus,-,62.5 µg/mL
NC[C@H]1O[C@H](O[C@H]2[C@H](O)[C@@H](O[C@H]3O[C@H](CO)[C@@H](O)[C@H](N)[C@H]3O)[C@H](N)C[C@@H]2N)[C@H](O)[C@@H](O)[C@@H]1O,-,N-752 (HIV-),MIC,-,Mycobacterium avium intracellulare,-,0.5 µg/mL
Clc1ccc(Cn2cc(/C=N/Nc3nncs3)c3ccccc32)cc1,48 h,1173P2,MIC100,broth dilution,Mycobacterium bovis BCG,-,3.91 µg/mL
CN[C@@H]1[C@@H](O[C@H]2O[C@H](CO)[C@@H](N)[C@H](O)[C@H]2O)OC2C[C@@H](N)[C@@H](O[C@H]3[C@H](OC4OC[C@@H](O)[C@H]4O)[C@@H](O)[C@H](N)C[C@@H]3N)OC2[C@@H]1O,-,L948,MIC,broth dilution,Mycobacterium abscessus,-,4 µg/mL
C[C@@H]1CN(c2c(F)c(N)c3c(=O)c(C(=O)O)cn(C4CC4)c3c2F)C[C@H](C)N1,-,28,MIC,broth dilution,Mycobacterium avium complex,-,4 µg/mL
CO[C@H]1/C=C/O[C@@]2(C)Oc3c(C)c(O)c4c(O)c(c5c(c4c3C2=O)NC2(CCN(CC(C)C)CC2)N=5)=NC(=O)/C(C)=C\C=C\[C@H](C)[C@H](O)[C@@H](C)[C@@H](O)[C@@H](C)[C@H](OC(C)=O)[C@@H]1C,-,ATCC 25291,Median MIC,-,Mycobacterium avium,-,0.56 µg/mL
N/C(=N\N=C\c1ccccc1Sc1ccc(Cl)cc1)c1ccccn1,-,-,inhibition,-,Mycobacterium fortuitum,100 µM,2.3%
NNC(=S)N/N=C/c1cn(S(=O)(=O)c2ccccc2)c2ccccc12,48 h,1173P2,MIC100,broth dilution,Mycobacterium bovis BCG,-,>500 µg/mL
CSC(=S)N/N=C(\C)c1ccc(OCc2ccc(F)cc2F)cc1,-,Strain M,MIC,resazurin / absorbance,Mycobacterium marinum,-,>100 µM
CC[C@@H](CO)NCCN[C@@H](CC)CO,-,K-10(PYUB180),MIC,-,Mycobacterium avium paratuberculosis,-,10 µg/mL
CC[C@H]1OC(=O)[C@H](C)[C@@H](O[C@H]2C[C@@](C)(OC)[C@@H](O)[C@H](C)O2)[C@H](C)[C@@H](O[C@@H]2O[C@H](C)C[C@H](N(C)C)[C@H]2O)[C@](C)(OC)C[C@@H](C)C(=O)[C@H](C)[C@@H](O)[C@]1(C)O,pH 7.4,3351,MIC,broth dilution / radiometric,Mycobacterium avium,-,0.5 µg/mL
CN[C@@H]1[C@@H](O[C@H]2O[C@H](CO)[C@@H](N)[C@H](O)[C@H]2O)OC2C[C@@H](N)[C@@H](O[C@H]3[C@H](OCC(O)CO)[C@@H](O)[C@H](N)C[C@@H]3N)OC2[C@@H]1O,-,L948,MIC,broth dilution,Mycobacterium abscessus,-,2 µg/mL
C=C1[C@@H](O)[C@@H]2OC3(CCC(/C=C/[C@@H](C)[C@@H]4CC(C)=CC5(O[C@H](C[C@@](C)(O)C(=O)O)CC[C@H]5O)O4)O3)CC[C@H]2O[C@@H]1[C@@H](O)C[C@H](C)[C@H]1OC2(CCCCO2)CC[C@H]1C,-,BCG,EC50,-,Mycobacterium bovis,-,>6 µM
N[C@@H]1CONC1=O,-,ATCC 25291,Mean MIC,-,Mycobacterium avium,-,44 µg/mL
CN[C@@H]1[C@@H](O[C@H]2O[C@H](CO)[C@@H](N)[C@H](O)[C@H]2O)OC2C[C@@H](N)[C@@H](O[C@H]3[C@H](OC4O[C@H](CO)[C@@H](O)[C@H]4O)[C@@H](O)[C@H](N)C[C@@H]3N)OC2[C@@H]1O,-,L948,MIC,broth dilution,Mycobacterium abscessus,-,16 µg/mL
N/C(=N\N=C1CCCCCCCCCCC1)c1ccccn1,-,-,EC50,-,Mycobacterium fortuitum,-,>100 µM
C[C@H]1COC2(CCN(C3=NC(=O)c4cc(C(F)(F)F)cc([N+](=O)[O-])c4S3(=O)=O)CC2)O1,-,-,MIC,-,Mycobacterium marinum,-,0.037 µg/mL
Cc1ccc2c(c1)C1(C(=O)N2)C2=C(C(=O)c3ccccc3C2=O)C2CCCN21,-,-,zone,agar diffusion,Mycobacterium luteus,50 µg/mL,11 mm
CN[C@@H]1[C@@H](O[C@H]2O[C@H](CO)[C@@H](N)[C@H](O)[C@H]2O)OC2C[C@@H](N)[C@@H](O[C@H]3[C@H](O)[C@@H](OCCO)[C@H](N)C[C@@H]3N)OC2[C@@H]1O,-,L948,MIC,broth dilution,Mycobacterium abscessus,-,2 µg/mL
COc1cc(Cc2cnc(N)nc2N)cc(OC)c1OC,-,Isolate 842,MBC,-,Mycobacterium ulcerans,-,>32 µg/mL
C[C@@H]1CN(c2c(F)c(N)c3c(=O)c(C(=O)O)cn(C4CC4)c3c2F)C[C@H](C)N1,-,20 strains,MIC50,-,Mycobacterium avium intracellulare,-,12.5 µg/mL
CN1CC2=C(C(=O)c3ccccc3C2=O)C12C(=O)c1cccc3cccc2c13,-,-,zone,agar diffusion,Mycobacterium luteus,50 µg/mL,8 mm
NCC[C@H](O)C(=O)N[C@@H]1C[C@H](N)[C@@H](O[C@H]2O[C@H](CN)[C@@H](O)[C@H](O)[C@H]2O)[C@H](O)[C@H]1O[C@H]1O[C@H](CO)[C@@H](O)[C@H](N)[C@H]1O,-,ATCC 25291,Mean MIC,-,Mycobacterium avium,-,5.8 µg/mL